A mixed list of measured activities; the numbers were collected in NIAID ChemDB.

Common to all: growth or infection tests; species: HIV-1; read-out: fold resistance

Blank or dashed fields: not listed here. Fold resistance: result on the changed form divided by that on wild type. Lines come from different laboratories, so protocols vary.

| compound | cells | read by | strain or isolate | setting | changes | result |
|---|---|---|---|---|---|---|
| Cc1cn([C@H]2C[C@H](N=[N+]=[N-])[C@@H](CO)O2)c(=O)[nH]c1=O | PBMC | p24 | RT multidrug-resistant (L74V V106A T215Y) | - | RT-L74V V106A T215Y | 13.8 |
| CO[C@H]1O[C@@H](n2ccc(=O)[nH]c2=O)C[C@@H]1N=[N+]=[N-] | MT-2 | RT activity | HX(RT-S156A) | - | RT-S156A | 0.0275 |
| Cc1cn([C@H]2C[C@H](N=[N+]=[N-])[C@@H](CO)O2)c(=O)[nH]c1=O | PBMC | - | BCF01 | - | RT-A98G K103R Y181C | 1 |
| Nc1nc(=O)n([C@@H]2CO[C@H](CO)S2)cc1F | CBMC | RT activity | HXB2D (M1841I) | - | RT-M184I | 1.07 |
| O=C(N[C@H]1c2ccccc2OC[C@H]1O)[C@H](Cc1cccnc1)C[C@H](O)CN1CCN(Cc2ccn(-c3ccc(F)c(F)c3F)c2)C[C@H]1C(=O)NCC(F)(F)F | MT-4 | p24 | K-60C Clinical isolate | - | PR-L10I M46I I54V Q58E L63P I64V V77I V82F I84V L90M I93L | ≥1.8 |
| Nc1ncnc2c1ncn2CCOCP(=O)(O)O | C8166 | p24 | RF | - | RT-K65R | 4.44 |
| CCOC(=O)c1cn(C)cc1S(=O)(=O)c1cc(Cl)ccc1N | MT-4 | cytopathic effect / MTT | Clinical isolate | - | RT-Y181C | ≥23 |
| CC(C)CN(C[C@@H](O)[C@H](Cc1ccccc1)NC(=O)O[C@H]1[C@H]2CCCO[C@H]2O[C@@H]1C)S(=O)(=O)c1ccc(N)cc1 | PBMC | p24 | MM | - | PR-L10I K43T M46I I54V L63P A71V V82A L90M Q92K | 10 |
| Cc1cn([C@H]2C=C[C@@H](CO)O2)c(=O)[nH]c1=O | MT-2 | cytopathic effect / MTT | - | - | RT-Q151M | 4.6 |
| CCN[C@H]1CO[C@@H]2OCC[C@H](OC(=O)N[C@@H](Cc3ccccc3)[C@H](O)CN(CC(C)C)S(=O)(=O)c3ccc4nc(NC5CC5)sc4c3)[C@@H]21 | MT-4 | p24 / luminescence | NL4-3 | - | L10F V32I L33F M46L I54M A71V | 1.1 |
| CCCc1cc(=O)oc2c3c(c4c(c12)OC(C)(C)C=C4)O[C@H](C)[C@@H](C)[C@@H]3O | CEM + CEM-SS | cytopathic effect / XTT | IIIB HEPT-resistant (IV) | - | RT-P236L | 2.4 |
| Cc1cn([C@@H]2O[C@H](CO[Si](C)(C)C(C)(C)C)C3(OS(=O)(=O)C=C3N)[C@H]2O[Si](C)(C)C(C)(C)C)c(=O)n(C)c1=O | CEM | syncytia | IIIB | - | RT-Y181C | 66 |
| C[C@@H]1O[C@H]2OCCC[C@H]2[C@H]1OC(=O)N[C@@H](Cc1ccccc1)[C@H](O)CN1C[C@H]2CCCC[C@H]2C[C@H]1C(=O)NC(C)(C)C | PBMC | p24 | TM | - | PR-L10I K14R R41K M46I I54V L63P A71V V82A L90M I93L | >4 |
| O=C(N[C@H]1c2ccccc2OC[C@H]1O)[C@H](Cc1cccnc1)C[C@H](O)CN1CCN(Cc2ccn(-c3cc(Cl)c(Cl)c(Cl)c3)c2)C[C@H]1C(=O)NCC(F)(F)F | MT-4 | p24 | K-60C Clinical isolate | - | PR-L10I M46I I54V Q58E L63P I64V V77I V82F I84V L90M I93L | ≥3.8 |
| Nc1cccc(CN2C(=O)N(Cc3cccc(N)c3)[C@H](Cc3ccccc3)[C@H](O)[C@@H](O)[C@H]2Cc2ccccc2)c1 | MT-2 | virus yield | Thai (PR L10F M46I D60E I84V) | - | PR-L10F M46I D60E I84V | 60 |
| Fc1cccc(F)c1C1SCc2nc3ccccc3n21 | CEM | cytopathic effect / MTT | IIIB | - | RT-K103N | 11.22 |
| Nc1ccn([C@H]2CC[C@@H](CO)O2)c(=O)n1 | MT-2 | p24 | RT-T69G K103N | - | RT-T69G K103N) | 4.3 |
| Cc1cn([C@@H]2O[C@H](CO[Si](C)(C)C(C)(C)C)[C@@]3(OS(=O)(=O)C=C3N)[C@H]2O[Si](C)(C)C(C)(C)C)c(=O)[nH]c1=O | CEM | syncytia | IIIB | - | RT-E138K | 92 |
| Cn1c2ccccc2c2c1cc(C#N)c(=O)n2-c1ccc([N+](=O)[O-])cc1 | HeLa | luciferase | NNRTI-resistant | - | RT-K103N V108I | 1.2 |
| Cc1ccnc2c1NC(=O)c1cccnc1N2C1CC1 | PBMC | p24 | RT multidrug-resistant (L74V V106A T215Y) | - | RT-L74V V106A T215Y | 17.2 |
| CC(C)CN(C[C@@H](O)[C@H](Cc1ccccc1)NC(=O)O[C@@H]1[C@@H]2CCCO[C@@H]2O[C@H]1C)S(=O)(=O)c1ccc(N)cc1 | PBMC | p24 | MM | - | PR-L10I K43T M46I I54V L63P A71V V82A L90M Q92K | 5 |
| Cc1cn([C@H]2C[C@H](N=[N+]=[N-])[C@@H](CO)O2)c(=O)[nH]c1=O | MT-2 | cytopathic effect / MTT | - | - | RT-Q151M A62V | >20 |
| CCOCn1c(Sc2ccccc2)c(CC)c(=O)[nH]c1=S | CEM | syncytia | IIIB | - | RT-Y181C | 133 |
| C[C@@H](NC(=S)Nc1ccc(Br)cn1)c1cccc2ccccc12 | PBMC | p24 | A17 | - | RT-Y181C | 105 |
| COc1ccc(S(=O)(=O)N(CC(C)C)C[C@@H](O)[C@H](Cc2ccccc2)NC(=O)O[C@H]2CO[C@H]3OCC(F)(F)[C@H]32)cc1 | MT-4 | - | NL4-3 | - | M46I I50V N38K M36I GRL05010-resistant | 58 |
| O=[N+]([O-])c1ccccc1S(=O)(=O)c1ccccc1 | CEM + CEM-SS | cytopathic effect / XTT | IIIB HEPT-resistant (IV) | - | RT-P236L | 0.8 |
| Nc1nc(N)c2ncn([C@H]3CO[C@@H](CO)O3)c2n1 | MT-2 | - | - | - | RT-K65R | 5.21 |
| O=S1(c2ccccc2)=NC(=S)Nc2ccccc21 | CEM + CEM-SS | cytopathic effect / XTT | IIIB(A17(III)) | - | RT-K103N Y181C | 52 |
| Cc1csc(NC(=S)N[C@H](C)c2cccc3ccccc23)n1 | PBMC | p24 | A17V(RT-K103N Y181C) | - | RT-K103N Y181C | 10.4 |
| Cc1cn([C@H]2C[C@H](N=[N+]=[N-])[C@@H](CO)O2)c(=O)[nH]c1=O | CEM + CEM-SS | cytopathic effect / XTT | NL4-3 | - | RT-K103E | 2 |
| Nc1ccn([C@@H]2CO[C@H](CO)S2)c(=O)n1 | C8166 | p24 | HXB2 | - | RT-M184V | 2 |
| Cc1cn([C@H]2C[C@H](N=[N+]=[N-])[C@@H](CO)O2)c(=O)[nH]c1=O | HeLa | luciferase | Recombinant | - | RT-M184V | 0.5 |
| CCn1c(=O)c(C)cn([C@@H]2O[C@H](CO[Si](C)(C)C(C)(C)C)C3(OS(=O)(=O)C=C3N)[C@H]2O[Si](C)(C)C(C)(C)C)c1=O | MT-4 | cytopathic effect / MTT | Recombinant mutant | - | RT-A98S | 0.4 |
| Nc1nc2c(ncn2[C@H]2CO[C@@H](CO)O2)c(=O)[nH]1 | - | - | Clinical isolate | - | RT-Y181C | ~1 |
| Nc1nc(NC2CC2)c2ncn([C@H]3C=C[C@@H](CO)C3)c2n1 | HeLa | luciferase | Recombinant | - | RT-M41L S68N G112S M184V | 1.4 |
| CC(C)=CCN1Cc2cc(Cl)cc3[nH]c(=S)n(c23)C[C@@H]1C | CEM | syncytia | IIIB | - | RT-E138K | 7 |
| Nc1nc(NC2CC2)c2ncn([C@H]3C=C[C@@H](CO)C3)c2n1 | MT-2 | p24 | - | - | RT-delta67 T69G | 12 |
| CCc1c(Sc2ccccn2)n(COCc2ccccc2)c(=O)[nH]c1=O | CEM + CEM-SS | cytopathic effect / XTT | IIIB(DPS-R(III)) | - | RT-Y181C | 84 |
| CC(=O)c1ccc(C)cc1NC(C(N)=O)c1c(Cl)cccc1Cl | MT-4 | cytopathic effect / MTT | IIIB | - | RT-E138K | 26 |
| Cc1ccnc2c1NC(=O)c1cccnc1N2C1CC1 | MT-2 | RT activity | HX(RT-S156A) | - | RT-S156A | 0.222 |
| Cc1ccccc1CNC(=O)[C@H]1N(C(=O)[C@@H](O)[C@H](Cc2ccccc2)NC(=O)c2cccc(O)c2C)CSC1(C)C | PBMC | RT activity | 1002-60 PI-resistant | - | PR-L10I M46I I54V L63P V82F L90M | 2 |
| O=C(N[C@H]1c2ccccc2OC[C@H]1O)[C@H](Cc1cccnc1)C[C@H](O)CN1CCN(Cc2ccn(-c3cccc(C(F)(F)F)c3)c2)C[C@H]1C(=O)NCC(F)(F)F | MT-4 | p24 | K-60C Clinical isolate | - | PR-L10I M46I I54V Q58E L63P I64V V77I V82F I84V L90M I93L | 2.06 |
| Cc1cn([C@@H]2O[C@H](CO[Si](C)(C)C(C)(C)C)C3(OS(=O)(=O)C=C3N)[C@H]2O[Si](C)(C)C(C)(C)C)c(=O)n(C)c1=O | MT-4 | cytopathic effect / MTT | Recombinant mutant | - | RT-E138A | 5.7 |
| Cc1ccnc2c1NC(=O)c1cccnc1N2C1CC1 | PBMC | - | BCF06 | - | RT-A98G K103R | 1.2 |
| CC(C)=CCn1cc2c(c1)S(=O)(=O)c1cc(Cl)ccc1NC2=S | MT-4 | cytopathic effect / MTT | Clinical isolate | - | RT-Y181C | ≥42.9 |
| CCn1c(=O)c(C)cn([C@@H]2O[C@H](CO[Si](C)(C)C(C)(C)C)C3(OS(=O)(=O)C=C3N)[C@H]2O[Si](C)(C)C(C)(C)C)c1=O | CEM | syncytia | IIIB | - | RT-Y181C | >833 |
| CCc1c(Sc2ccccn2)n(COCc2ccccc2)c(=O)[nH]c1=O | CEM + CEM-SS | cytopathic effect / XTT | IIIB | - | RT-P236L | 37 |
| CN[C@H]1CO[C@@H]2OCC[C@H](OC(=O)N[C@@H](Cc3cccc(OC)c3)[C@H](O)CN(CC(C)C)S(=O)(=O)c3ccc4nc(NC(C)C)sc4c3)[C@@H]21 | MT-4 | p24 / luminescence | NL4-3 | - | L10F M46I I54V V82A | 1.2 |
| CC(C)[C@H](NC(=O)c1ccccn1)C(=O)N[C@@H](Cc1ccccc1)[C@H](O)[C@H](O)[C@H](Cc1ccccc1)NC(=O)[C@@H](NC(=O)c1ccccn1)C(C)C | MT-4 | p24 | P19 (PR-R8Q) | - | PR-R8Q | 2 |
| COC(=O)N[C@H](C(=O)N[C@@H](Cc1ccccc1)[C@@H](O)CN(Cc1ccc(-c2ccccn2)cc1)NC(=O)[C@@H](NC(=O)OC)C(C)(C)C)C(C)(C)C | MT-4 | p24 / luminescence | NL4-3 | - | L10I I54V K20R L24I V32I L33F M36I M46I I54M L63P K70Q V82I I84V L89M | >213 |
| COc1cccc(C[C@H](NC(=O)c2cccc(O)c2C)[C@H](O)C(=O)N2CSC(C)(C)[C@H]2C(=O)NCc2c(C)cccc2C)c1 | PBMC | RT activity | 1002-60 PI-resistant | - | PR-L10I M46I I54V L63P V82F L90M | 5 |
| Nc1nc(=O)n([C@H]2CS[C@@H](CO)O2)cc1F | MT-2 | recombinant virus assay / single cycle | HXB2 | pseudotyped | Y143C | 1.1 |
| CC(C)=CCN1Cc2cc(Cl)cc3[nH]c(=S)n(c23)C[C@@H]1C | PBMC | - | BCF06 | - | RT-A98G K103R | >312.5 |
| Cc1cn([C@H]2C[C@H](N=[N+]=[N-])[C@@H](CO)O2)c(=O)[nH]c1=O | CEM + CEM-SS | XTT | Costatolide-resistant (RT L100I T139I) | - | RT-L100I T139I | 12 |
| COC(=O)N[C@H](C(=O)N[C@@H](Cc1ccccc1)[C@@H](O)CN(Cc1ccc(-c2ccccn2)cc1)NC(=O)[C@@H](NC(=O)OC)C(C)(C)C)C(C)(C)C | MT-4 | - | NL4-3 | - | A28S L33F V82I GRL04810-resistant | 81 |
| Cc1ccnc2c1NC(=O)c1cccnc1N2C1CC1 | CEM + CEM-SS | XTT | Calanolide A-resistant (RT T139I) | - | RT-T139I | 1 |
| CC(C)CN(C[C@@H](O)[C@H](Cc1ccccc1)NC(=O)O[C@H]1CCOC1)S(=O)(=O)c1ccc(N)cc1 | PBMC | RT activity | 1026-40 PI-resistant | - | PR-L10I M46I I54V L63P A71V V82A L90M | 29 |
| CC(C)CN(C[C@@H](O)[C@H](Cc1ccccc1)NC(=O)O[C@H]1CCO[C@H]2OCC[C@H]21)S(=O)(=O)c1ccc2nc(NC3CC3)sc2c1 | MT-4 | p24 / luminescence | NL4-3 | - | L23I E34Q K43I M46I I50L G51A L63P A71V V82A T91A | 0.3 |
| COc1ccc2c(c1)N(C(=O)OC(C)C)[C@@H](CSC)C(=S)N2 | MT-4 | cytopathic effect / MTT | Recombinant mutant | - | RT-E138A | 1.6 |
| COc1ccc(C[C@H](NC(=O)c2cccc(O)c2C)[C@H](O)C(=O)N2CSC(C)(C)[C@H]2C(=O)NCc2ccccc2C)cc1 | PBMC | RT activity | 1002-60 PI-resistant | - | PR-L10I M46I I54V L63P V82F L90M | 3 |

The first 3 rows once more:

compound,cells,read by,strain or isolate,setting,changes,result
Cc1cn([C@H]2C[C@H](N=[N+]=[N-])[C@@H](CO)O2)c(=O)[nH]c1=O,PBMC,p24,RT multidrug-resistant (L74V V106A T215Y),-,RT-L74V V106A T215Y,13.8
CO[C@H]1O[C@@H](n2ccc(=O)[nH]c2=O)C[C@@H]1N=[N+]=[N-],MT-2,RT activity,HX(RT-S156A),-,RT-S156A,0.0275
Cc1cn([C@H]2C[C@H](N=[N+]=[N-])[C@@H](CO)O2)c(=O)[nH]c1=O,PBMC,-,BCF01,-,RT-A98G K103R Y181C,1